Data reported in the NIST ThermoML archive (doi:10.1016/j.jct.2018.04.005).

Experiment: xn = mol fraction of the nth substance listed
Conditions: 100 kPa, Liquid, Vibrating tube method

CCCCOP(=O)(OCCCC)OCCCC [tributyl phosphate] + CCCCn1cc[n+](C)c1.F[B-](F)(F)F
mass density [kg/m3]
Conditions | x2 = 0.1158 | x2 = 0.2275 | x2 = 0.3355 | x2 = 0.4399 | x2 = 0.5409 | x2 = 0.6387 | x2 = 0.7333 | x2 = 0.825 | x2 = 0.9138
293.15 K | 997.05 | 1017.74 | 1038.48 | 1060.2 | 1082.55 | 1105.34 | 1128.65 | 1152.49 | 1176.71
298.15 K | 993.14 | 1013.9 | 1034.98 | 1056.79 | 1079.35 | 1102.22 | 1125.69 | 1149.65 | 1174.08
303.15 K | 989.13 | 1009.67 | 1030.66 | 1052.49 | 1075.04 | 1097.96 | 1121.34 | 1145.4 | 1169.51
308.15 K | 984.91 | 1005.38 | 1026.38 | 1048.24 | 1070.94 | 1093.9 | 1117.42 | 1141.61 | 1165.77
313.15 K | 980.71 | 1001.24 | 1022.34 | 1044.17 | 1066.94 | 1090.05 | 1113.55 | 1137.88 | 1162.16
318.15 K | 977.02 | 997.5 | 1018.69 | 1040.49 | 1063.21 | 1086.31 | 1109.86 | 1134.17 | 1158.5
323.15 K | 972.79 | 993.29 | 1014.65 | 1036.54 | 1059.29 | 1082.36 | 1106.1 | 1130.56 | 1154.99

CCCCOP(=O)(OCCCC)OCCCC [tributyl phosphate] + CCCCn1cc[n+](C)c1.F[P-](F)(F)(F)(F)F
mass density [kg/m3]
Conditions | x2 = 0 | x2 = 0.0943 | x2 = 0.1898 | x2 = 0.2866 | x2 = 0.3845 | x2 = 0.4838 | x2 = 0.5843 | x2 = 0.6862 | x2 = 0.7894 | x2 = 0.894
293.15 K | 976.92 | 1008.07 | 1040.16 | 1073.81 | 1109.17 | 1146.37 | 1185.43 | 1227.12 | 1271.78 | 1319.74
298.15 K | – | 1003.9 | 1036.19 | 1069.75 | 1105.29 | 1142.27 | 1181.27 | 1223.12 | 1267.68 | 1315.73
303.15 K | 968.59 | 999.76 | 1032.32 | 1065.81 | 1101.31 | 1138.1 | 1177.16 | 1218.81 | 1263.41 | 1311.14
308.15 K | – | 995.49 | 1028.3 | 1062.11 | 1097.75 | 1134.52 | 1174.02 | 1216.07 | 1261.02 | 1308.69
313.15 K | – | 991.31 | 1024.36 | 1058.14 | 1093.87 | 1130.69 | 1170.3 | 1212.26 | 1257.36 | 1304.77
318.15 K | – | 987.58 | 1020.97 | 1054.82 | 1090.64 | 1127.5 | 1167 | 1208.99 | 1253.95 | 1301.47
323.15 K | 951.94 | 983.55 | 1016.95 | 1050.96 | 1086.64 | 1123.66 | 1162.96 | 1205.06 | 1250.04 | 1297.49
